Compound potency records, mixed from different reports. Data source: NIAID ChemDB in PubChem.

Shared fields: enzyme or target tests

ICn: concentration for n% inhibition. Neighbouring rows are from separate reports. Percent inhibition refers to the dose given; in toxicity tests it is the harm to the cells. Blank or dashed fields: not listed here.

structure | tested at | protein | agent | endpoint | strain | method | value
Nc1nc2c(ncn2[C@@H]2O[C@H](COP(=O)(O)O)[C@@H](O)[C@H]2O)c(=O)[nH]1 |  | DNA polymerase | Herpes simplex virus 1 | IC50 |  |  | >2000 µM
C[C@@H](c1ccccc1)N(CC(=O)Nc1ccc(-c2csc(N)n2)cc1)C(=O)c1ccncc1 |  | Helicase | Herpes simplex virus 1 | IC50 |  |  | 1.3 µM
C/C(=N\NC(=O)NNC(=O)Nc1ccccc1Cl)c1ccccn1 |  | Ribonucleotide reductase | Herpes simplex virus 1 | IC50 |  |  | >5 µM
Cc1c(NC(=O)OC(C)(C)C)ccc2nc(N(CCc3ccccc3)C(=O)NCc3ccccn3)oc(=O)c12 |  | Protease | Herpes simplex virus 1 | IC50 |  |  | 0.5 µM
CCOC(=O)NC(=S)NNC(=S)N/N=C(\C)c1ccccn1 |  | Ribonucleotide reductase | Herpes simplex virus 1 | IC50 |  |  | >5 µM
CC[C@@H](N(C)C(=O)[C@@H](NC(=O)[C@@H](CC(=O)[C@@H](NC(=O)[C@H](C(C)C)N(C)C(=O)[C@H](C)CC1CCCCC1)C(C)(C)C)CC(=O)C(C)(C)C)C1(C(=O)O)CCCC1)C(C)(C)C |  | Ribonucleotide reductase | Herpes simplex virus 1 | IC50 |  |  | 0.147 µM
CC[C@H](C)[C@H](NC(=O)[C@H](C(C)C)N(C)C(=O)CCc1ccccc1)C(=O)N[C@@H](CC(=O)N1CCCC1)C(=O)N[C@@H](CC(=O)O)C(=O)NCCCC1CCCCC1 |  | Ribonucleotide reductase | Herpes simplex virus 1 | IC50 |  |  | 1.8 µM
Nc1nc(-c2ccc(NC(=O)[C@@H]3CCCN3C(=O)c3ccccc3)cc2)cs1 |  | Helicase-primase | Herpes simplex virus 1 | IC50 | KOS |  | 1.5 µM
CN(C)n1cc(C(=O)NCc2ccc(Cl)cc2)c(=O)c2cc(C#CCO)ccc21 |  | DNA polymerase | Herpes simplex virus 1 | IC50 |  |  | 0.86 µM
Cc1c(NC(=O)OC(C)(C)C)ccc2nc(N(CCc3ccccc3)C(=O)NCc3ccncc3)oc(=O)c12 |  | Protease | Herpes simplex virus 1 | IC50 |  |  | >20 µM
Nn1cc(C(=O)NCc2ccc(Cl)cc2)c(=O)c2cc(C#CCO)ccc21 |  | DNA polymerase | Herpes simplex virus 1 | IC50 |  |  | 0.31 µM
CCc1cn([C@@H]2O[C@H](CO)[C@@H](O)[C@@H]2F)c(=O)nc1N | 200 µM | Thymidine kinase | Herpes simplex virus 2 | inhibition | G |  | 0%
CC(C)(C)OC(=O)N(CCC(=O)Nc1ccc(-c2csc(N)n2)cc1)C1CCc2ccccc21 |  | Helicase-primase | Herpes simplex virus 1 | IC50 | F |  | 21 µM
O=c1[nH]cnc2c1ncn2[C@H]1CC[C@@H](COP(=O)(O)O)O1 | 2000 µM | DNA polymerase | Herpes simplex virus 1 | inhibition |  |  | 83.6%
C[C@H](NC(=O)OCc1ccccc1)C(=O)Nc1csc2c(=O)oc([C@H](C)NC(=O)OCc3ccccc3)nc12 |  | HSV-2 protease | Herpes simplex virus 2 | IC50 |  | HPLC | 10 µM
C[C@@H]1CCC[C@H](C)C1NC(=O)N[C@H](C(=O)C[C@@H](CC(=O)C(C)(C)C)C(=O)N[C@H](C(=O)NCC(C)(C)C)C1(C(=O)O)CCCC1)C(C)(C)C |  | Ribonucleotide reductase | Herpes simplex virus 2 | IC50 |  | radioligand binding / binding | <0.001 µM
Nn1cc(C(=O)NCc2ccc(Cl)cc2)c(=O)c2cc(CCCO)ccc21 |  | DNA polymerase | Herpes simplex virus 1 | IC50 |  |  | 0.22 µM
C/C(=N\NC(=S)NNC(=S)Nc1ccc(I)cc1)c1ccccn1 |  | Ribonucleotide reductase | Herpes simplex virus 1 | IC50 |  |  | >5 µM
Nc1nc(=O)n([C@@H]2O[C@H](CO)[C@@H](O)[C@@H]2F)cc1/C=C/I | 200 µM | Thymidine kinase | Herpes simplex virus 2 | inhibition | G |  | 0%
Nc1nc(-c2ccc(NC(=O)C(=O)N(Cc3ccccc3)Cc3ccccc3)cc2)cs1 |  | Helicase-primase | Herpes simplex virus 1 | IC50 | KOS |  | 1.2 µM
Cc1cn([C@@H]2O[C@H](CO)[C@@H](O)[C@@H]2F)c(=O)[nH]c1=O |  | DTHD kinase | Herpes simplex virus 1 | Ki | KOS |  | 0.59 µM
C/C(=N\NC(=S)NNC(=S)Nc1cccnc1)c1ccccn1 |  | Ribonucleotide reductase | Herpes simplex virus 1 | IC50 |  |  | >5 µM
CC(C)[C@H](NC(=O)CCc1ccccc1)C(=O)N[C@H](C(=O)N[C@@H](CC(=O)N1CCCC1)C(=O)N[C@@H](CC(=O)O)C(=O)N[C@H](CO)CC(C)(C)C)C(C)C |  | Ribonucleotide reductase | Herpes simplex virus 1 | IC50 |  | binding | 0.024 µM
C/C(=N\NC(=S)NNC(=S)N(C)C)c1ccccn1 |  | Ribonucleotide reductase | Herpes simplex virus 1 | IC50 |  |  | >5 µM
Nc1nc2c(ncn2CCC(CO)COP(=O)(O)OP(=O)(O)OP(=O)(O)O)c(=O)[nH]1 |  | DNA polymerase | Herpes simplex virus 2 | Ki |  |  | 9.5 µM
O=c1[nH]c(=O)n([C@@H]2O[C@H](CO)[C@@H](O)[C@@H]2O)cc1/C=C/Br | 100 µM | Thymidine kinase | Herpes simplex virus 1 | inhibition | C42 |  | 84%
CN1CCN(n2cc(C(=O)NCc3ccc(Cl)cc3)c(=O)c3cc(CN4CCOCC4)ccc32)CC1 |  | DNA polymerase | Herpes simplex virus 1 | IC50 |  |  | 0.41 µM
CC[C@@H](NC(=O)[C@@H](NC(=O)[C@H](CC(=O)C(C)(C)C)NC(=O)[C@@H](NC(=O)NC1[C@H](C)CCC[C@@H]1C)C(C)(C)C)C1(C(=O)O)CCCC1)C(C)(C)C |  | Ribonucleotide reductase | Herpes simplex virus 2 | IC50 |  | radioligand binding / binding | <0.001 µM
CCN(C(=O)N(C)CCc1ccccn1)c1nc2ccc(NC(=O)CCCNC(=O)OCc3ccccc3)c(C)c2c(=O)o1 |  | Protease | Herpes simplex virus 1 | IC50 |  |  | 0.2 µM
C#C[C@H]1O[C@@H](n2cc(C)c(=O)[nH]c2=O)C[C@@H]1O |  | Thymidine kinase | Herpes simplex virus 1 | IC50 | SC16 |  | 5 µM
C[C@@H](c1ccccc1)N(CC(=O)Nc1ccc(-c2csc(N)n2)cc1)C(=O)c1ccncc1 |  | Helicase-primase | Herpes simplex virus 1 | IC50 | KOS |  | 3.8 µM
C/C=C/c1cn([C@H]2C[C@H](O)[C@@H](CO)O2)c(=O)[nH]c1=O | 5 µM | Thymidine kinase | Herpes simplex virus 1 | inhibition | 91075 |  | <0%
O=c1[nH]c(=O)n([C@@H]2O[C@H](CO)[C@@H](O)[C@@H]2F)cc1/C=C/Cl | 200 µM | Thymidine kinase | Herpes simplex virus 2 | inhibition | G |  | 0%
Nc1nc(N)c2ncn([C@@H]3O[C@H](COP(=O)(O)O)[C@@H](O)[C@H]3O)c2n1 |  | DNA polymerase | Herpes simplex virus 1 | IC50 |  |  | <2000 µM
C/C(=N\NC(=S)NNC(=S)Nc1ccc([N+](=O)[O-])cc1)c1ccccn1 |  | Ribonucleotide reductase | Herpes simplex virus 1 | IC50 |  |  | >5 µM
C/C=C/c1cn([C@@H]2O[C@H](CO)[C@@H](O)[C@@H]2O)c(=O)[nH]c1=O | 5 µM | Thymidine kinase | Herpes simplex virus 1 | inhibition | C42 |  | 21%
Nc1nc2c(ncn2COCCOP(=O)(O)OP(=O)(O)OP(=O)(O)O)c(=O)[nH]1 |  | DNA polymerase | Herpes simplex virus 2 | Ki |  |  | 0.003 µM
C[C@@H]1CCC[C@H](C)C1NC(=O)N[C@H](C(=O)C[C@@H](CC(=O)C(C)(C)C)C(=O)N[C@H](C(=O)N[C@H](CO)CC(C)(C)C)C1(C(=O)O)CCCC1)C(C)(C)C |  | Ribonucleotide reductase | Herpes simplex virus 2 | IC50 |  | radioligand binding / binding | <0.001 µM
C#Cc1cn([C@@H]2O[C@H](CO)[C@@H](O)[C@@H]2F)c(=O)nc1N | 200 µM | Thymidine kinase | Herpes simplex virus 2 | inhibition | G |  | 13.7%
C/C(=N\NC(=S)NNC(=S)Nc1ccccc1)c1ccccn1 |  | Ribonucleotide reductase | Herpes simplex virus 1 | IC50 |  |  | >5 µM
O=c1[nH]c(=O)n([C@@H]2O[C@H](CO)[C@@H](O)[C@@H]2F)cc1/C=C/I | 200 µM | Thymidine kinase | Herpes simplex virus 2 | inhibition | G |  | 3.8%
Cc1cccc(/C=N/NC(=S)NNC(=S)Nc2ccccc2Cl)n1 |  | Ribonucleotide reductase | Herpes simplex virus 1 | IC50 |  |  | >5 µM
CC[C@H](C)[C@H](NC(=O)[C@H](C(C)C)N(C)C(=O)Cc1ccc(O)cc1)C(=O)NC(CC(=O)N(C)C)C(=O)N[C@@H](CC(=O)O)C(=O)N[C@@H](CC(C)C)C(=O)O |  | Ribonucleotide reductase | Herpes simplex virus 1 | IC50 |  |  | 0.09 µM
Nc1nc(-c2ccc(Cl)cc2)cs1 |  | Primase | Herpes simplex virus 1 | IC50 | UL5/8/52 |  | 20 µM
O=c1[nH]cnc2c1ncn2[C@@H]1O[C@H](CO)[C@@H](O)[C@H]1O | 2000 µM | DNA polymerase | Herpes simplex virus 1 | inhibition |  |  | 96%
C[C@H](NC(=O)OC(C)(C)C)c1nc2ccsc2c(=O)o1 |  | HSV-2 protease | Herpes simplex virus 2 | IC50 |  | HPLC | >10 µM
CN(C)n1cc(C(=O)NCc2ccc(Cl)cc2)c(=O)c2cc(CN3CCOCC3)ccc21 |  | DNA polymerase | Herpes simplex virus 1 | IC50 |  |  | 0.72 µM

Repeating the final 6 entries:

structure | tested at | protein | agent | endpoint | strain | method | value
Cc1cccc(/C=N/NC(=S)NNC(=S)Nc2ccccc2Cl)n1 |  | Ribonucleotide reductase | Herpes simplex virus 1 | IC50 |  |  | >5 µM
CC[C@H](C)[C@H](NC(=O)[C@H](C(C)C)N(C)C(=O)Cc1ccc(O)cc1)C(=O)NC(CC(=O)N(C)C)C(=O)N[C@@H](CC(=O)O)C(=O)N[C@@H](CC(C)C)C(=O)O |  | Ribonucleotide reductase | Herpes simplex virus 1 | IC50 |  |  | 0.09 µM
Nc1nc(-c2ccc(Cl)cc2)cs1 |  | Primase | Herpes simplex virus 1 | IC50 | UL5/8/52 |  | 20 µM
O=c1[nH]cnc2c1ncn2[C@@H]1O[C@H](CO)[C@@H](O)[C@H]1O | 2000 µM | DNA polymerase | Herpes simplex virus 1 | inhibition |  |  | 96%
C[C@H](NC(=O)OC(C)(C)C)c1nc2ccsc2c(=O)o1 |  | HSV-2 protease | Herpes simplex virus 2 | IC50 |  | HPLC | >10 µM
CN(C)n1cc(C(=O)NCc2ccc(Cl)cc2)c(=O)c2cc(CN3CCOCC3)ccc21 |  | DNA polymerase | Herpes simplex virus 1 | IC50 |  |  | 0.72 µM